Results of unrelated studies side by side (data: NIAID ChemDB).

Shared fields: whole-cell or culture tests; organism: Herpes simplex virus 2; read-out: EC50

Blank or dashed fields: not listed here. ECn is the concentration giving n% inhibition of infection, replication or growth. Rows are shuffled and stem from different studies. a–b is a range or a potency band.

compound	strain or isolate	method	result
Cc1cn([C@H]2S[C@@H](CO)C[C@@H]2N=[N+]=[N-])c(=O)[nH]c1=O			>100 µg/mL
Nc1nc(NC2CC2)c2ncn(C=C3CC3CO)c2n1			41 µM
CCc1cn([C@@H]2OC3COP(=O)(O)OC3[C@H]2O)c(=O)nc1N	G		>400 µg/mL
O=c1c2ncn(COC(CO)CO)c2[nH]c2nccn12	G	cytopathic effect	2 µg/mL
O=c1[nH]c(=O)n([C@H]2S[C@H](CO)[C@@H](O)[C@@H]2F)cc1CCO	MS	cytopathic effect	>27 µg/mL
O=c1[nH]c(=O)n([C@H]2O[C@@H](CO)[C@H](O)[C@H]2O)cc1/C=C/Br			>100 µM
C=C1[C@H](CO)[C@H]1Cn1cnc2c(=O)[nH]cnc21			>100 µM
[N-]=[N+]=N[C@H]1C[C@H](CO)S[C@H]1n1cnc2c(Cl)ncnc21			>100 µg/mL
O=C(c1ccccc1Br)n1c(-c2ccc([N+](=O)[O-])cc2)nc2ccccc21	G		>100 µg/mL
O=c1[nH]c(=O)n([C@H]2S[C@H](CO)[C@@H](O)[C@@H]2F)cc1I	MS	cytopathic effect	>27 µg/mL
CC1=C[C@H](n2ccc(N)nc2=O)C[C@]1(C)CO			>100 µg/mL
CS/C=C/C(=O)NCCCCNC(=O)/C=C/SC		plaque count	>20 µg/mL
NSc1ncnc2c1ncn2[C@@H]1O[C@H](CO)[C@@H](O)[C@@H]1O		cytopathic effect	>320 µM
COc1ccc(-c2[nH]c3nc4c(ncn4COCCO)c(=O)n3c2-c2ccc(C(c3ccccc3)c3ccccc3)cc2)cc1	G	cytopathic effect	>16 µg/mL
Nc1nc2c(ncn2C/C=C/CO)c(=O)[nH]1		cytopathic effect	>100 µg/mL
Nc1nc2c(ncn2C[C@]2(CO)C[C@H]2CO)c(=O)[nH]1		plaque count	0.1–1 µM
C=C1[C@H](CO)[C@H]1Cn1cnc2c(N)ncnc21			>100 µM
O=C(NCc1ccc(Cl)cc1)c1c[nH]c2ccc(CCCO)cc2c1=O	MS	plaque count	15 µM
Nc1ccn(CC=C(CO)CO)c(=O)n1			>100 µg/mL
O=C(O)c1ccccc1-c1nc2ccccc2n1C(=O)c1ccncc1	G		>100 µg/mL
C/C(=C\Cn1ccc(=O)[nH]c1=O)CO			>100 µg/mL
CC(=O)NC1C(O)OC(CO)C(O)C1OC1OC(C(=O)[O-])C(OC2OC(CO)C(O)C(OC3OC(C(=O)[O-])C(O)C(O)C3O)C2NC(C)=O)C(O)C1O.[Na+].[Na+]	G		>400 µg/mL
NS(=O)c1ncnc2c1ncn2[C@H]1C[C@H](O)[C@@H](CO)O1		cytopathic effect	>320 µM
CCc1cn([C@@H]2O[C@H](COP(=O)(O)O)[C@@H](O)[C@H]2O)c(=O)nc1N	G		>400 µg/mL
NS(=O)c1ncnc2c1ncn2[C@@H]1O[C@H](CO)[C@@H](O)[C@@H]1O		cytopathic effect	>320 µM
COC(=O)[C@H](C)NP(=O)(OCC1C/C1=C/n1cnc2c(=O)[nH]c(N)nc21)Oc1ccccc1			>100 µM
O=c1ccn(CC=C(CO)CO)c(=O)[nH]1			>100 µg/mL
O=C(c1ccc([N+](=O)[O-])cc1)n1c(-c2ccc(O)cc2)nc2ccccc21	G		>100 µg/mL
C/C(=C\Cn1ccc(N)nc1=O)CO			>100 µg/mL
[N-]=[N+]=N[C@H]1C[C@@H](CO)S[C@@H]1n1ccc(N)nc1=O			>100 µg/mL
CCCCCc1cn([C@@H]2O[C@H](COP(=O)(O)O)[C@@H](O)[C@H]2O)c(=O)nc1N	LYONS		>400 µg/mL
CC(=O)OC[C@H]1O[C@@H](n2cc(-c3cc(-c4ccc(C(C)C)cc4)no3)c(=O)[nH]c2=O)CC[C@@H]1O			0.07 µg/mL
Nc1nc(=S)n([C@@H]2O[C@H](CO)[C@@H](O)[C@@H]2O)cc1F	LYON		0.16 µg/mL
Cc1cn([C@@H]2S[C@H](CO)C[C@H]2N=[N+]=[N-])c(=O)[nH]c1=O			>100 µg/mL
CCCc1cn([C@@H]2O[C@H](COP(=O)(O)O)[C@@H](O)[C@H]2O)c(=O)nc1N	LYONS		>400 µg/mL
COC(=O)[C@H](C)NP(=O)(OC[C@H]1C/C1=C/n1cnc2c(N)nc(N)nc21)Oc1ccccc1			15 µM
CC1=C[C@H](n2ccc(=O)[nH]c2=O)C[C@]1(C)CO			>100 µg/mL
CNc1ncnc2c1ncn2[C@H]1S[C@H](CO)C[C@@H]1N=[N+]=[N-]			>100 µg/mL
O=c1c2ncn(COCCO)c2[nH]c2ncc(CO)n12	196	cytopathic effect	>3.2 µg/mL
Nc1nc2c(ncn2COC(CO)CO)c(=O)[nH]1		plaque count	0.001–0.01 µM
CCCCc1cn([C@@H]2OC3COP(=O)(O)OC3[C@H]2O)c(=O)nc1N	G		>400 µg/mL
Cc1cn([C@@H]2OCC(CO)=C2F)c(=O)[nH]c1=O			>100 µg/mL
O=c1[nH]c(=O)n([C@@H]2S[C@H](CO)[C@@H](O)[C@@H]2F)cc1CCO	MS	cytopathic effect	>27 µg/mL
Nc1nc2c(ncn2COC(CO)CO)c(=O)[nH]1	333	plaque count	0.2 µM
Nc1nc(NCC2CC2CO)c(N=O)c(=O)[nH]1		cytopathic effect	>100 µg/mL
C=C1[C@H](CO)[C@H]1Cn1cnc2c(=O)[nH]c(N)nc21			>100 µM
Nc1ncnc2c1ncn2C/C=C\CO		cytopathic effect	>100 µg/mL
Cc1cn([C@@H]2S[C@@H](CO)C[C@@H]2N=[N+]=[N-])c(=O)[nH]c1=O			>100 µg/mL
O=C(c1ccc([N+](=O)[O-])cc1)n1c(-c2ccc(Cl)cc2)nc2ccccc21	G		>100 µg/mL
O=c1[nH]c(=O)n([C@H]2S[C@H](CO)[C@@H](O)[C@@H]2F)cc1/C=C/Br	MS	cytopathic effect	>27 µg/mL
CC1=C[C@H](n2ccc(=O)[nH]c2=O)CC1(CO)CO			>100 µg/mL
O=C(c1ccc([N+](=O)[O-])cc1)n1c(-c2ccccc2Cl)nc2ccccc21	G		>100 µg/mL
COc1ccc(-c2cn3c(=O)c4ncn(COC(CO)CO)c4nc3[nH]2)cc1	G	cytopathic effect	0.03 µg/mL
Nc1nc2c(ncn2[C@@H]2CO[C@H](CO)[C@@H](O)C2)c(=O)[nH]1		plaque count	0.1–1 µM
O=C(NCc1ccc(Cl)cc1)c1c[nH]c2ccc(C#CCO)cc2c1=O	3 isolates	plaque count	16 µM
Nc1ccn([C@H]2CC[C@H](CO)O2)c(=S)n1			>100 µM
O=C(c1ccncc1)n1c(-c2ccc([N+](=O)[O-])cc2)nc2ccccc21	G		>100 µg/mL
O=c1c2ncn(COCCO)c2nc2[nH]c(-c3ccccc3)c(-c3ccc(C(c4ccccc4)c4ccccc4)cc3)n12	G	cytopathic effect	>16 µg/mL
O=c1[nH]c(=O)n([C@@H]2C[C@@H](O)[C@H](CO)O2)cc1I			>100 µM

For reference, 7 entries again:

compound	strain or isolate	method	result
NSc1ncnc2c1ncn2[C@@H]1O[C@H](CO)[C@@H](O)[C@@H]1O		cytopathic effect	>320 µM
O=C(O)c1ccccc1-c1nc2ccccc2n1C(=O)c1ccncc1	G		>100 µg/mL
O=C(c1ccc([N+](=O)[O-])cc1)n1c(-c2ccc(Cl)cc2)nc2ccccc21	G		>100 µg/mL
Nc1nc2c(ncn2COC(CO)CO)c(=O)[nH]1		plaque count	0.001–0.01 µM
Nc1ncnc2c1ncn2C/C=C\CO		cytopathic effect	>100 µg/mL
O=c1[nH]c(=O)n([C@H]2S[C@H](CO)[C@@H](O)[C@@H]2F)cc1/C=C/Br	MS	cytopathic effect	>27 µg/mL
O=C(c1ccc([N+](=O)[O-])cc1)n1c(-c2ccccc2Cl)nc2ccccc21	G		>100 µg/mL